Pooled drug test results. Numbers come from NIAID ChemDB, via PubChem.

All rows: host cell toxicity; cells: MRC-5; measure: CC50

Lines come from different laboratories, so protocols vary.

CCOP(=O)(CCCOCn1cnc2c(=O)[nH]c(N)nc21)OCC ; method: visual reading ; value: >2780 µM
c1ccc(-c2cc3c4ccccc4ccn3c2)cc1 ; method: MTT ; value: >500 µM
Cc1cn([C@H]2C[C@H](NC=O)[C@@H](CO)O2)c(=O)[nH]c1=O ; value: >100 µM
O=c1[nH]c(=S)n([C@@H]2O[C@H](CO)[C@@H](O)[C@@H]2O)cc1/C=C/Br ; value: >213 µM
COc1ccc2c(c1)[C@@H]1C[C@]1(C(=O)N1[C@@H]3CC[C@H]1CN(C)C3)Cn1c-2c(C2CCCCC2)c2ccc(C(=O)NS(=O)(=O)N(C)C)cc21 ; method: resazurin ; value: 16 µM
CCCCCCCCCCCCCCCCOCCCOP(=O)(O)CCCOCn1cnc2c(=O)[nH]c(N)nc21 ; value: 23 µM
[C-]#[N+][C@H]1C[C@H](n2cc(C)c(=O)[nH]c2=O)O[C@@H]1CO ; value: 20 µM
CC#Cc1cn([C@@H]2O[C@H](COP(=O)(O)Oc3ccccc3Cl)[C@@H](O)[C@@H]2O)c(=O)[nH]c1=O ; value: 305 µM
Cc1cn([C@H]2C[C@H](NC(N)=O)[C@@H](CO)O2)c(=O)[nH]c1=O ; value: >100 µM
CC(O)c1cn([C@@H]2O[C@H](CO)[C@@H](O)[C@@H]2O)c(=S)[nH]c1=O ; value: >263.5 µM
Fc1ccccc1-c1cc2ccccn2c1 ; method: MTT ; value: 500 µM
Nc1nc2c(ncn2COC(CO)CCP(=O)(O)O)c(=O)[nH]1 ; method: visual reading ; value: >3000 µM
CO/N=C/c1ccc(OCCC2CCN(c3ccc(Cl)nn3)CC2)cc1 ; method: visual reading ; value: >1 µg/mL
O=C(CCCCCCCCC(=O)Nc1cc(S(=O)(=O)O)cc2cc(S(=O)(=O)O)cc(O)c12)Nc1cc(S(=O)(=O)O)cc2cc(S(=O)(=O)O)cc(O)c12 ; value: >500 µM
CCCCCCCCCCCCCCCCOCCCOP(=O)(O)CCCOCn1cnc2c(NC3CC3)nc(N)nc21 ; value: 41 µM
CC(=O)Nc1cc(S(=O)(=O)O)cc2cc(S(=O)(=O)O)cc(O)c12 ; value: >500 µM
CCCc1cn([C@H]2C[C@H](O)[C@@H](CO)O2)c(=S)nc1N ; value: >277.4 µM
CC(=O)c1c(-c2ccc(C#N)cc2)cc2ccccn12 ; method: MTT ; value: >500 µM
CCO/N=C/c1ccc(OCCCC2CCN(c3ccc(Cl)nn3)CC2)cc1 ; method: visual reading ; value: >1 µg/mL
COc1ccc2c(c1)C=C1Cn3c-2c(C2CCCCC2)c2ccc(cc23)C(=O)NS(=O)(=O)N(C)CCOCCN(C)C1=O ; method: resazurin ; value: >50 µM
FC(F)(F)c1cc(Cl)c2cc(-c3ccccc3)cn2c1 ; method: MTT ; value: >500 µM
O=C(O)/C=C/c1cn([C@@H]2O[C@H](CO)[C@@H](O)[C@@H]2O)c(=S)[nH]c1=O ; value: >213 µM
CCCO/N=C/c1ccc(OCCC2CCN(c3ccc(Cl)nn3)CC2)cc1 ; method: visual reading ; value: >1 µg/mL
Nc1nc(NC2CC2)c2ncn(COCCCP(=O)(O)O)c2n1 ; value: >100 µM
CCO/N=C/c1ccc(OCCC2CCN(c3nnc(C(F)(F)F)s3)CC2)cc1 ; method: neutral red ; value: >0.5 µg/mL
FC(F)(F)Oc1ccc(-c2cc3ccccn3c2)cc1 ; method: MTT ; value: 100 µM
COCC(CCP(=O)(O)O)OCn1cnc2c(=O)[nH]c(N)nc21 ; method: visual reading ; value: >2362 µM
CC#Cc1cn([C@@H]2O[C@H](COP(=O)(O)Oc3ccc(F)cc3)[C@@H](O)[C@@H]2O)c(=O)[nH]c1=O ; value: >500 µM
Fc1ccc2cc(-c3ccccc3)cn2c1 ; method: MTT ; value: >500 µM
Nc1nc(=S)n([C@@H]2O[C@H](CO)[C@@H](O)[C@@H]2O)cc1CO ; value: >253.5 µM
CO/N=C/c1ccc(OCCC2CCN(c3ccc(C)nn3)CC2)cc1 ; method: neutral red ; value: >0.1 µg/mL
COc1ccc2c(c1OC)C=[N+]1CCc3cc4c(cc3C1C2)OCO4 ; value: 74 µM
CCc1nc2ccc(OCCC3CCN(c4ccc(C)nn4)CC3)cc2o1 ; value: >1 µg/mL
CCCCCCCCCCc1nccn(COCCO)c1=O ; method: MTT ; value: >100 µM
Cc1cn([C@@H]2O[C@H](CO)[C@@H](O)[C@@H]2O)c(=S)nc1N ; value: >264.9 µM
CCO/N=C/c1ccc(OCCC2CCN(c3ccc(C)nn3)CC2)c(O)c1 ; method: neutral red ; value: >0.1 µg/mL
Fc1cccc(-c2cc3ccccn3c2)c1 ; method: MTT ; value: 100 µM
O=C(CCCCCCC(=O)Nc1cc(S(=O)(=O)O)cc2cc(S(=O)(=O)O)cc(O)c12)Nc1cc(S(=O)(=O)O)cc2cc(S(=O)(=O)O)cc(O)c12 ; value: >500 µM
CCOP(=O)(O)CCC(C)OCn1cnc2c(=O)[nH]c(N)nc21 ; method: visual reading ; value: >2760 µM
Nc1nc(N)c2ncn(OCCCCP(=O)(O)O)c2n1 ; value: >100 µg/mL
CSc1nc2ccc(OCCC3CCN(c4ccc(C)nn4)CC3)cc2o1 ; value: >1 µg/mL
CCO/N=C/c1ccc(OCCC2CCN(c3cccc(C)n3)CC2)cc1 ; method: neutral red ; value: >0.1 µg/mL
CC#Cc1cn([C@@H]2O[C@H](COP(=O)(N[C@H](C(=O)OC)C(C)C)Oc3ccccc3)[C@@H](O)[C@@H]2O)c(=O)[nH]c1=O ; value: >500 µM
CCCCCCCCCCCCCCCCCCOCCOP(=O)(O)CCCOCn1cnc2c(=O)[nH]c(N)nc21 ; value: 36 µM
CCc1cn([C@H]2C[C@H](O)[C@@H](CO)O2)c(=S)nc1N ; value: >277.4 µM

Repeating the first 6 entries:

| SMILES | method | value |
|---|---|---|
| CCOP(=O)(CCCOCn1cnc2c(=O)[nH]c(N)nc21)OCC | visual reading | >2780 µM |
| c1ccc(-c2cc3c4ccccc4ccn3c2)cc1 | MTT | >500 µM |
| Cc1cn([C@H]2C[C@H](NC=O)[C@@H](CO)O2)c(=O)[nH]c1=O |  | >100 µM |
| O=c1[nH]c(=S)n([C@@H]2O[C@H](CO)[C@@H](O)[C@@H]2O)cc1/C=C/Br |  | >213 µM |
| COc1ccc2c(c1)[C@@H]1C[C@]1(C(=O)N1[C@@H]3CC[C@H]1CN(C)C3)Cn1c-2c(C2CCCCC2)c2ccc(C(=O)NS(=O)(=O)N(C)C)cc21 | resazurin | 16 µM |
| CCCCCCCCCCCCCCCCOCCCOP(=O)(O)CCCOCn1cnc2c(=O)[nH]c(N)nc21 |  | 23 µM |

CCn: concentration that lowers growth or viability of the cells by n%. Blank or dashed fields: not listed here.